Assay results reported in article PMC8705652, “Widespread Distribution and Adaptive Degradation of Microcystin Degrader (mlr-Genotype) in Lake Taihu, China” (Toxins, 2021).

Experiments:
[1] = tested on: Arthrobacter R4; conditions: cited from earlier work
[2] = tested on: Arthrobacter F7; conditions: cited from earlier work
[3] = tested on: Paucibacter DSMZ-16998; conditions: cited from earlier work
[4] = tested on: Sphingopyxis N5; set-up: species or system Sphingopyxis sp. strain N5
[5] = tested on: Rhodococcus C1; conditions: cited from earlier work
[6] = tested on: Sphingosinicella 7CY; conditions: cited from earlier work
[7] = tested on: Brevibacterium F3; conditions: cited from earlier work
[8] = tested on: Arthrobacter C6; conditions: cited from earlier work
[9] = tested on: Sphingopyxis MB-E; conditions: cited from earlier work

Substance	half-life (t1/2) [1]	half-life (t1/2) [2]	half-life (t1/2) [3]	degradative activity within 24 h [4]	half-life (t1/2) [5]	half-life (t1/2) [6]	half-life (t1/2) [7]	half-life (t1/2) [8]	Degradation Rate [9]
MC-LW	140 h	170 h	170 h	no significant degradative activity	140 h	~79.2 h	220 h	190 h	6.25 × 10^−4) mg/(L·h)
MC-LF	170 h	140 h	140 h	no significant degradative activity	190 h	~79.2 h	170 h	190 h	6.25 × 10^−4) mg/(L·h)
